Percent effect of library compounds

A: 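Phenotypic screen: M. tuberculosis growth, cholesterol and DPPC medium, 4 days; the read-out is not stated. Compounds at 500 µM. The record gives no direction; compounds that gave an IC50 in retests scored well above the rest, so higher reads as more growth inhibition. Of about 18,000 compounds tested this way, about 900 (5%) reached 50% or more in at least one test.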
B: 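Phenotypic screen: M. tuberculosis growth, glucose 7H9 medium, 3 days; the read-out is not stated. Concentration: 500 µM. Direction is inferred from retests: higher values go with more growth inhibition. Of about 18,000 compounds tested this way, about 1,400 (7.9%) reached 50% or more in at least one test.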

Results are given as percent effect.
How 0% and 100% were set is not recorded. Most values in the screen are low, and negative values occur.
The entries come from a sample that favours strong results.
A dash means the value is not listed here; it may have been measured.

Compound,A,B
CCCC(C)NC(=O)c1coc(C)n1 (stereo not shown),-,51.57
Cc1cc(CN)[nH]n1,21.01,-
O=C1CN(C(=O)c2ccc(Br)s2)c2ccccc2N1,-,15.85
CCOC(CN)CN,-,-18.38
CNC(=O)CN(c1cccc2ccccc12)S(C)(=O)=O,-,7.111
NCC(=O)N1CCCC(CCc2ccc(F)c(F)c2)C1 (stereo not shown),89.66,91.74
CN(C)C(=O)CNc1ccc(OC(C)(C)C)cc1,-,-4.374
Nc1ncc(C(F)F)cc1Br,-,1.528
CCS(=O)(=O)c1ccc(CNc2cc(C)ccn2)cc1,-,1.479
NCc1ccc(-n2cccn2)cc1,-,11.29
Cc1ccc(C)c(-n2c(C)cc(=O)[nH]c2=O)c1,-,-10.85
CCCC(O)(C(N)=O)c1ccccc1 (stereo not shown),35.27,-
CCc1c[nH]ccc1=N,-,-9.47
CN1CCN(CC2CCNCC2)CC1,-18.96,-
CCN1Cc2ccccc2CC1C(N)=O (stereo not shown),3.237,-
N#Cc1ccc(CC(N)=O)cc1,-,-5.007
O=C(NCCN1CCOCC1)c1cc(C2CC2)[nH]n1,-,13.61
N#CCc1ccc(-n2cnnn2)cc1,-,17.64
COCCN(CCC#N)S(=O)(=O)c1c(C)nn(C)c1Cl,-,6.224
CCn1ccc(NC(=O)C2CCCC2)n1,18.88,-
CC(C)N(C)S(=O)(=O)NC1CCOc2ccccc21 (stereo not shown),-,56.07
NC(CO)c1c(F)cccc1F (stereo not shown),-,-1.809
CCCn1ncc(CN2CCN(S(N)(=O)=O)CC2)c1C,12.02,-
Cc1ccc(C(=O)NCCSc2nccn2C)c(=O)[nH]1,-,27.64
COc1ccc(NC(=O)NC(C)(C)C(C)(C)O)cc1,-,59.08
NCc1ccc(OC2CCCC2)nc1,-9.115,3.912
CCN(CCn1cccn1)C(=O)c1cc(C(C)C)no1,53.35,-
CS(=O)(=O)NCc1ccnc(O)c1,-,-1.616
Cc1ccc(OC(C)CN)cc1 (stereo not shown),94.8,86.47
COc1ccc(CN2CCCNCC2)cc1,51.41,63.18
NS(=O)(=O)CCN1CCOC(c2ccccc2)C1 (stereo not shown),2.921,-
OC(CNc1ncnc2ncccc12)C1CCCC1 (stereo not shown),-,28.07
COC(=O)[C@@H]1C[C@@H](O)CN1Cc1ncc(C(C)(C)C)o1,72.93,-13.03
CC(=O)NCC1CCN(Cc2ccccc2)C1 (stereo not shown),-,21.87
Cc1cc(NC(=O)NCC(O)c2ccccc2F)no1 (stereo not shown),-,-10.63
c1ccc(OCC2CCNC2)cc1 (stereo not shown),16.71,28.97
NCc1nnc(CCc2ccccc2)o1,-,35.55
Cc1nnc(CN2CCN(CC(O)C(C)(C)C)CC2)o1 (stereo not shown),-,8.189
O=C(Cc1c[nH]c2ccccc12)N1CCNCC1,-,20.71
CC1(CN)CCCN1Cc1ccccc1 (stereo not shown),-1.581,-
COc1cccc(C(N)C(C)C)n1 (stereo not shown),-,-8.135
COCCN1CCCC1C(=O)Nc1ccccc1 (stereo not shown),9.908,-
CC(=O)NCCNC(=O)CN1CCNC(=O)C1C (stereo not shown),-1.525,-
Cc1cccc(N2CCCC(N)C2)n1 (stereo not shown),81.39,89.36
NC1CCN(Cc2ccccc2)C1=O (stereo not shown),-34.45,-4.999
CC1CCCN(C(=O)CN2CCC(O)CC2)C1 (stereo not shown),0.3284,-
Cc1nc(CC(=O)NC2C=CS(=O)(=O)C2)cs1 (stereo not shown),-,3.857
O=S(=O)(NCC1(NS(=O)(=O)C2CC2)CCC1)C1CC1,10.42,-
CC(C)(C)NC(=O)CN1CCN(CCC#N)CC1,-,5.698
CC(NC(=O)NC1CCN(C)CC1)c1ccncc1F (stereo not shown),-,1.884
Nc1ncn(Cc2ccccn2)n1,-0.2933,-0.2795
N#Cc1cccc2c1NC(=O)C2,-,-10.1
OCCOCCN1CCC(=Cc2ccccc2)CC1,34.52,65.48
COc1ccc(C(=O)Nc2cc(Br)c(=O)n(C)c2)cc1,20.42,-
Cc1ccccc1OCCC(=O)NC1CCS(=O)(=O)C1 (stereo not shown),-9.707,-
CC1C(=O)NCCCN1C(=O)NCc1ccsc1Br (stereo not shown),-,26.29
Cc1cc(N2CCNC2=O)ccc1NS(=O)(=O)C1CC1,-,14.69

The first 4 entries again:

CCCC(C)NC(=O)c1coc(C)n1 (stereo not shown) gave B: 51.57%.
Cc1cc(CN)[nH]n1 gave A: 21.01%.
O=C1CN(C(=O)c2ccc(Br)s2)c2ccccc2N1 gave B: 15.85%.
CCOC(CN)CN gave B: -18.38%.

Data taken from ChEMBL document CHEMBL3988442, “University of Dundee, Small-Polar-MMV Screening Library” (2021).